Measured values from several laboratories, pooled; numbers as filed in NIAID ChemDB.

Shared fields: growth or infection tests; species: Mycobacterium tuberculosis

MIC50, MIC90 and the like: level of inhibition, or share of isolates inhibited. Percent inhibition refers to the dose given; in toxicity tests it is the harm to the cells. Blank or dashed fields: not listed here. MIC bound: limit read from a one-dose screen. Conditions beyond the fields shown may differ between rows. ECn: concentration that inhibits the pathogen or its effect by n%.

structure	read-out	cells	changes	method	tested at	strain or isolate	result
CCc1ccccc1NC(=O)/C(CC(=O)c1c(C)n([O-])c2ccccc2[n+]1=O)=N/NS(=O)(=O)c1ccc(C)cc1	MIC bound			BACTEC		H37Rv	>12.5 µg/mL
CO/C(C)=C1/NC(=O)[C@H]([C@@H](C)O)NC(=O)c2csc(n2)-c2cc(O)c(-c3nc(C(=O)NCCCN4CCOCC4)cs3)nc2-c2csc(n2)[C@@H]2COC(=O)c3c4c5c(cccc5n3O)COC(=O)[C@@H](O[C@H]3C[C@](C)(O)[C@H](N(C)C)[C@H](C)O3)[C@@H](OC4)[C@H](NC(=O)c3csc1n3)c1nc(cs1)C(=O)N2	MIC		Rifampicin- and isoniazid-resistant	broth dilution		Clinical isolate 10525	≤25 µM
O=c1[nH]c2cc([N+](=O)[O-])ccc2c(O)c1N=Nc1ccccc1-c1ccccc1	MIC			resazurin		H37Rv	<6.25 µg/mL
O=C1c2ccccc2OC(c2ccccc2)C1O	inhibition				12.5 µg/mL		38%
CC(Cc1c[nH]c2ccccc12)NCCNCc1ccco1	MIC						50 µM
O=C(O)[C@@H]1C[C@@H](O)CCN1	MIC			BACTEC		H37Rv	≥12.8 µg/mL
Clc1nc(Sc2ccc3ccccc3n2)c2[nH]cnc2n1.O	MIC					H37Ra	>12.8 µg/mL
NC1CCN(c2nc3c(cc2F)c(=O)c(C(=O)O)cn3-c2ccc(F)cc2F)C1	MBC					ATCC 35827	>8 µg/mL
O=C(/C=C/c1ccc(Cl)cc1)c1ccccc1O	EC50						<12.5 µg/mL
O=C1c2ccccc2C(=O)c2sc(Nc3ccc(Cl)c(Cl)c3)nc21	MIC			BACTEC		H37Rv	6.25 µg/mL
NC[C@H]1O[C@H](O[C@H]2[C@H](O)[C@@H](O[C@H]3O[C@H](CO)[C@@H](O)[C@H](N)[C@H]3O)[C@H](N)C[C@@H]2N)[C@H](N)C[C@@H]1O	Mean MIC					H37Rv	7 µg/mL
O=c1[nH]c(=O)n(C2CCOC2)cc1Br	MIC bound			BACTEC		H37Rv	>12.5 µg/mL
CCCCCCCCCCCNCCNCCc1ccccc1Cl	MIC						25 µM
CC(=O)OC[C@H]1O[C@@H](Oc2cc(OC(C)=O)c3c(=O)cc(-c4ccc(OC(C)=O)cc4)oc3c2C2C(=O)c3c(OC(C)=O)cc(OC(C)=O)cc3OC2c2ccc(OC(C)=O)cc2)[C@H](OC(C)=O)[C@@H](OC(C)=O)[C@@H]1OC(C)=O	EC50						>12.5 µg/mL
CO/C(C)=C1/NC(=O)[C@H]([C@@H](C)O)NC(=O)c2csc(n2)-c2cc(OC)c(-c3nc(C(=O)NCCCN4CCOCC4)cs3)nc2-c2csc(n2)[C@@H]2COC(=O)c3c4c5c(cccc5n3O)COC(=O)[C@@H](O[C@H]3C[C@](C)(O)[C@H](N(C)C)[C@H](C)O3)[C@@H](OC4)[C@H](NC(=O)c3csc1n3)c1nc(cs1)C(=O)N2	MIC			broth dilution		H37Rv	≤1 µM
CC[C@H]1OC(=O)[C@H](C)[C@@H](O[C@H]2C[C@@](C)(OC)[C@@H](O)[C@H](C)O2)[C@H](C)[C@@H](O[C@@H]2O[C@H](C)C[C@H](N(C)C)[C@H]2O)[C@](C)(OC)C[C@@H](C)C(=O)[C@H](C)[C@@H](O)[C@]1(C)O	MBC					ATCC 35820	>8 µg/mL
Clc1ccc(CCNCCNC2CCc3ccccc32)c(Cl)c1	MIC						50 µM
COc1ccc(C2Oc3cc(F)ccc3C(=O)C2OC(C)=O)cc1	inhibition				12.5 µg/mL	H37Rv	50%
C=C(NC(=O)c1csc(-c2nc3c(cc2O)-c2nc(cs2)C(=O)N[C@@H]([C@@H](C)O)C(=O)N/C(=C(\C)OC)c2nc(cs2)C(=O)N[C@@H]2c4nc(cs4)C(=O)N[C@@H](COC(=O)c4c5c6c(cccc6n4O)COC(=O)[C@@H](O[C@H]4C[C@](C)(O)[C@H](N(C)C)[C@H](C)O4)[C@H]2OC5)c2nc-3cs2)n1)C(N)=O	MIC			broth dilution		Clinical isolate 30034	≤2.5 µM
Cc1ccccc1CSc1ccccn1	inhibition				6.25 µg/mL	H37Rv	0%
O=C(/C=C/c1ccncc1)c1ccco1	inhibition				12.5 µg/mL		0%
Cc1ccccc1CSc1ccncc1	inhibition				6.25 µg/mL	H37Rv	0%
NNC(=O)c1ccncc1	MIC					29197	≥0.2 µg/mL
O=c1[nH]c2c(Cl)cccc2c(O)c1N=Nc1ccccc1Cl	inhibition			resazurin	6.25 µg/mL	H37Rv	7%
CN(C)CCNc1ccc(O)c2sc3ccccc3c(=O)c12	MIC bound			BACTEC		H37Rv	>12.5 µg/mL
Cc1cccc(N=Nc2c(O)c3ccc([N+](=O)[O-])cc3[nH]c2=O)c1	MIC			resazurin		H37Rv	>6.25 µg/mL
Clc1ccc(Sc2nc(Cl)nc3nc[nH]c23)cc1	MIC					H37Ra	>12.8 µg/mL
CC(C)=CCC/C(C)=C/CNCCN1CC2(C)CC1CC(C)(C)C2	MIC						12.5 µM
CN[C@@H]1[C@H](O[C@H]2[C@H](O[C@H]3[C@H](O)[C@@H](O)[C@H](N=C(N)N)[C@@H](O)[C@@H]3N=C(N)N)O[C@@H](C)[C@]2(O)C=O)O[C@@H](CO)[C@H](O)[C@H]1O	MIC					9120	<2 µg/mL
C[C@@H]1CN(c2c(F)c(N)c3c(=O)c(C(=O)O)cn(C4CC4)c3c2F)C[C@H](C)N1	MBC					ATCC 35826	0.06 µg/mL
CC1COc2c(N3CCN(C)CC3)c(F)cc3c(=O)c(C(=O)O)cn1c23	Median MIC					H37Rv	0.75 µg/mL
[O-][N+]12CCCCC1CCCC2CO	MIC			BACTEC		H37Rv	≥128 µg/mL
COc1ccccc1CSc1ccncc1	inhibition				6.25 µg/mL	H37Rv	0%
CCCCC(CC)CN1CN(CC(CC)CCCC)CC(C)(NCCNCCC)C1	MIC						6.25 µM
O=c1cc(-c2ccc(O)cc2)oc2cc(O[C@@H]3O[C@H](CO)[C@@H](O)[C@H](O)[C@H]3O)cc(O)c12	MIC bound			BACTEC		H37Rv	>12.5 µg/mL
C[C@H]1C[C@H](N)CN1c1cc2c(cc1F)c(=O)c(C(=O)O)cn2-c1ccc(F)cc1F	MIC					H37Rv	2 µg/mL
NNC(=O)c1ccncc1	MIC					PR503	1.25 µg/mL
CCC1OC(=O)CC(O)C(C)C(OC2OC(C)C(O)C(N(C)C)C2O)C(CC=O)CC(C)C(=O)/C=C\C2(C)OC2C1C	MIC bound			BACTEC		H37Rv	>12.5 µg/mL
O=c1[nH]c2ccccc2c(O)c1N=Nc1cccc(Cl)c1	inhibition			resazurin	6.25 µg/mL	H37Rv	41%
S=C(Nc1nc2ccccc2s1)SSC(=S)Nc1nc2ccccc2s1	MIC bound			BACTEC		H37Rv	≤128 µg/mL
CCC(C)NCCNC[C@]1(C)CCC[C@]2(C)c3ccc(C(C)C)cc3CC[C@@H]12	MIC						12.5 µM
CCCCOC(=O)c1cc(=O)[nH]c(=O)[nH]1	inhibition			BACTEC	12.5 µg/mL	H37Rv	21%
NCC[C@H](O)C(=O)N[C@@H]1C[C@H](N)[C@@H](O[C@H]2O[C@H](CN)[C@@H](O)[C@H](O)[C@H]2O)[C@H](O)[C@H]1O[C@H]1O[C@H](CO)[C@@H](O)[C@H](N)[C@H]1O	MIC			broth dilution / resazurin		MDR1	4 µg/mL
Cc1ccc(N=Nc2c(O)c3ccc([N+](=O)[O-])cc3[nH]c2=O)cc1	inhibition			resazurin	6.25 µg/mL	H37Rv	92%
CCCCC(CC)CN1CN(CC(CC)CCCC)CC(C)(NCCN[C@@H](C)C2CCCCC2)C1	MIC						25 µM
CCN(CC)CCCCCNc1cc(Cl)c(Cl)cc1[N+](=O)[O-]	MIC bound			BACTEC		H37Rv	>6.25 µg/mL
O=c1[nH]c2c(Cl)c(Cl)ccc2c(O)c1N=Nc1cccc(Cl)c1	MIC			resazurin		H37Rv	<6.25 µg/mL
C[C@H]1COc2c(N3CCN(C)CC3)c(F)cc3c(=O)c(C(=O)O)cn1c23	MIC90					DRUG-SUS	0.25 µg/mL
Cc1ccc(S(=O)(=O)NC(=O)OC23COCN2COC3)cc1	inhibition			BACTEC	12.5 µg/mL	H37Rv	2%
Nc1ccccc1/C=C/C(=O)c1cc(Br)ccc1O	EC50						>12.5 µg/mL
O=C(NNC(=S)Nc1cccc(C(F)(F)F)c1)c1ccncc1	MIC	VERO				H37Rv	6.25 µg/mL
COc1ccc(Sc2ncccn2)cc1OC	MIC90					H37Rv	>6.25 µg/mL
Cc1onc(-c2ccccc2Cl)c1C(=O)N[C@@H]1C(=O)N2[C@@H]1SC(C)(C)[C@@H]2C(=O)O	Mean MIC					H37Ra	160 µg/mL
Nc1nc(N)c([N+](=O)[O-])c(Nc2ccc(Br)cc2)n1	inhibition			BACTEC	12.5 µg/mL	H37Rv	-9%
NNC(=O)c1ccncc1	MIC		Rifampicin- isoniazid- moxifloxacin-resistant	broth dilution		Clinical isolate 6134	>10 µM
O=C1c2ncn(C3O[C@H](CO)[C@@H](O)[C@H]3O)c2NC2=NC=NC12	inhibition			resazurin	6.25 µg/mL	H37Rv	10%
COc1ccc(OC)c(CCNCCNCC(c2ccccc2)c2ccccc2)c1	MIC						6.25 µM
NC[C@@H]1O[C@H](O[C@H]2[C@@H](O)[C@H](O[C@@H]3[C@@H](O)[C@H](N)C[C@H](N)[C@H]3O[C@H]3O[C@H](CO)[C@@H](O)[C@H](O)[C@H]3N)O[C@@H]2CO)[C@H](N)[C@@H](O)[C@@H]1O	Median MIC					H37Rv	2 µg/mL
CCCCC(CC)CN1CN(CC(CC)CCCC)CC(C)(NCCN[C@H]2C[C@H]3C[C@@H]([C@@H]2C)C3(C)C)C1	MIC						50 µM
CC1(C)[C@H]2CC[C@@H](CNCCNC3CCCCCCC3)[C@@H]1C2	MIC						12.5 µM
CC(CNCC12CC3CC(CC(C3)C1)C2)NC[C@@H]1CC[C@H]2C[C@@H]1C2(C)C	MIC						50 µM
C[C@@H]1O[C@@H](O[C@@H]2C[C@H](c3ccc4c(c3O)C(=O)C3=C(C4=O)[C@@]4(O[C@H]5CC[C@H](O)[C@H](C)O5)C(=O)C[C@@](C)(O)C[C@@]4(O)C=C3)O[C@H](C)[C@H]2O)CC[C@@H]1O[C@H]1C[C@@H](O)[C@H](O)[C@@H](C)O1	MIC			BACTEC		H37Rv	>4 µg/mL
CO[C@H]1/C=C/O[C@@]2(C)Oc3c(C)c(O)c4c(O)c(c(/C=N/N5CCN(C)CC5)c(O)c4c3C2=O)NC(=O)/C(C)=C\C=C\[C@H](C)[C@H](O)[C@@H](C)[C@@H](O)[C@@H](C)[C@H](OC(C)=O)[C@@H]1C	MIC		Rifampicin- and isoniazid-resistant	broth dilution		Clinical isolate 1868	≤10 µM
Nc1ccc(C(=O)O)c(O)c1	Median MIC					H37Rv	1.25 µg/mL
O=C1C(CO)=C[C@@H](O)[C@@H]2O[C@H]12	MIC			BACTEC		H37Rv	≥12.5 µg/mL
O=C1CC(c2ccccc2)Oc2cc(I)ccc21	inhibition				12.5 µg/mL		20%
Cc1ccc(CNCCNC[C@]2(C)CCC[C@]3(C)c4ccc(C(C)C)cc4CC[C@@H]23)cc1	MIC						25 µM
COc1ccc(C2CC(=O)c3c(OC)cc(OC)c(I)c3O2)cc1	inhibition				12.5 µg/mL	H37Rv	0%
O=C(Nc1ccc(C2=NCCCN2)cc1)c1ccc(C(=O)Nc2ccc(C3=NCCCN3)cc2)nc1	MIC					ETA-R	12.5 µg/mL
NC[C@H]1O[C@H](O[C@H]2[C@H](O)[C@@H](O[C@H]3O[C@H](CO)[C@@H](O)[C@H](N)[C@H]3O)[C@H](N)C[C@@H]2N)[C@H](O)[C@@H](O)[C@@H]1O	Median MIC					H37Rv	1.25 µg/mL
COc1ccc(OC)c(CCNCCNCCCCCO)c1	MIC						12.5 µM
CC12C=C3C4(CCCC3(O1)c1ccccc12)OCCO4	MIC bound			BACTEC		H37Rv	>12.5 µg/mL
NC[C@H]1O[C@H](O[C@H]2[C@H](O)[C@@H](O[C@H]3O[C@H](CO)[C@@H](O)[C@H](N)[C@H]3O)[C@H](N)C[C@@H]2N)[C@H](O)[C@@H](O)[C@@H]1O	MIC					ATCC 35827 (kanamycin-resistant)	>128 µg/mL
Nc1nc2nc3c(nc2c(=O)[nH]1)CN(c1ccc(C(=O)NC(CCC(=O)O)C(=O)O)cc1)C3=O	inhibition			BACTEC	12.8 µg/mL	H37Rv	34%
NNC(=O)c1ccncc1	MIC		INH RIF EMB resistant	resazurin		Clinical isolate 19 RP	3.12 µg/mL

A second listing of 8 rows from above:

COc1ccc(Sc2ncccn2)cc1OC ; read-out: MIC90 ; strain or isolate: H37Rv ; result: >6.25 µg/mL
O=C1C(CO)=C[C@@H](O)[C@@H]2O[C@H]12 ; read-out: MIC ; method: BACTEC ; strain or isolate: H37Rv ; result: ≥12.5 µg/mL
C=C(NC(=O)c1csc(-c2nc3c(cc2O)-c2nc(cs2)C(=O)N[C@@H]([C@@H](C)O)C(=O)N/C(=C(\C)OC)c2nc(cs2)C(=O)N[C@@H]2c4nc(cs4)C(=O)N[C@@H](COC(=O)c4c5c6c(cccc6n4O)COC(=O)[C@@H](O[C@H]4C[C@](C)(O)[C@H](N(C)C)[C@H](C)O4)[C@H]2OC5)c2nc-3cs2)n1)C(N)=O ; read-out: MIC ; method: broth dilution ; strain or isolate: Clinical isolate 30034 ; result: ≤2.5 µM
CO/C(C)=C1/NC(=O)[C@H]([C@@H](C)O)NC(=O)c2csc(n2)-c2cc(O)c(-c3nc(C(=O)NCCCN4CCOCC4)cs3)nc2-c2csc(n2)[C@@H]2COC(=O)c3c4c5c(cccc5n3O)COC(=O)[C@@H](O[C@H]3C[C@](C)(O)[C@H](N(C)C)[C@H](C)O3)[C@@H](OC4)[C@H](NC(=O)c3csc1n3)c1nc(cs1)C(=O)N2 ; read-out: MIC ; changes: Rifampicin- and isoniazid-resistant ; method: broth dilution ; strain or isolate: Clinical isolate 10525 ; result: ≤25 µM
Cc1ccccc1CSc1ccccn1 ; read-out: inhibition ; tested at: 6.25 µg/mL ; strain or isolate: H37Rv ; result: 0%
NCC[C@H](O)C(=O)N[C@@H]1C[C@H](N)[C@@H](O[C@H]2O[C@H](CN)[C@@H](O)[C@H](O)[C@H]2O)[C@H](O)[C@H]1O[C@H]1O[C@H](CO)[C@@H](O)[C@H](N)[C@H]1O ; read-out: MIC ; method: broth dilution / resazurin ; strain or isolate: MDR1 ; result: 4 µg/mL
O=C1CC(c2ccccc2)Oc2cc(I)ccc21 ; read-out: inhibition ; tested at: 12.5 µg/mL ; result: 20%
CC(C)=CCC/C(C)=C/CNCCN1CC2(C)CC1CC(C)(C)C2 ; read-out: MIC ; result: 12.5 µM